PubChem BioAssay AID1259414, Drosophila RNAi Screening Center | 2018

Assay: 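Host factors increasing or decreasing Wolbachia levels in cultured fly cells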 (primary screen)
Cell system: Drosophila JW18 cells infected with Wolbachia
Reagent: long dsRNA against Drosophila genes, 0.25 µg dsRNA per well of a 384-well plate
Duration: 5 days
Treatment: cells persistently infected with Wolbachia before knock-down; no added drug
Detection: 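Imaged fluorescence in situ signal for Wolbachia 23S rRNA per DAPI-counted host cell, given as a robust z-score within each plate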
Reading the numbers: Wolbachia per cell robust z: higher = more Wolbachia per host cell than the plate typical
Hit rule: 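Hit when robust z is 1.5 or more, or -1.5 or less, in at least two of three replicates; excludes dsRNAs with several or no targets, genes not expressed in JW18 and well A1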
In all, the deposit lists about 24,000 reagents; below is a random part of those with a known target gene and a result. Over the whole deposit, about 1,210 (5%) are marked active. 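Inactive calls also include excluded dsRNAs with several or no targets, genes unexpressed in JW18, and well A1, regardless of score.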 Unmarked entries are inactive.

With lncRNA:CR42651 (GeneID 14462440) [DRSC41377], how do the results read?
Wolbachia per cell robust z, rep 1: -0.75; Wolbachia per cell robust z, rep 2: 0.306; Wolbachia per cell robust z, rep 3: -2.83

What did the screen give for CG4049 (GeneID 37860) [DRSC04443]?
Wolbachia per cell robust z, rep 1: -0.00549; Wolbachia per cell robust z, rep 2: -0.316; Wolbachia per cell robust z, rep 3: -0.638

With CG4049 (GeneID 37860) [DRSC29138], what does the deposit list?
Wolbachia per cell robust z, rep 1: -0.0787; Wolbachia per cell robust z, rep 2: 1.08; Wolbachia per cell robust z, rep 3: 0.193

With Obp56a (GeneID 37264) [DRSC06085], how do the results read?
Wolbachia per cell robust z, rep 1: -0.261; Wolbachia per cell robust z, rep 2: -0.442; Wolbachia per cell robust z, rep 3: -1.55

Which result is listed for Obp56a (GeneID 37264) [DRSC30070]?
Wolbachia per cell robust z, rep 1: 0.00425; Wolbachia per cell robust z, rep 2: 0.105; Wolbachia per cell robust z, rep 3: 0.712

Which result is listed for SdhA (GeneID 37228) [DRSC07547]?
Wolbachia per cell robust z, rep 1: 0.595; Wolbachia per cell robust z, rep 2: 0.146; Wolbachia per cell robust z, rep 3: 0.653

Which result is listed for CG6962 (GeneID 41436) [DRSC16153]?
Wolbachia per cell robust z, rep 1: 0.559; Wolbachia per cell robust z, rep 2: 0.0703; Wolbachia per cell robust z, rep 3: 0.673

For CG6962 (GeneID 41436) [DRSC28894], how do the results read?
Wolbachia per cell robust z, rep 1: 0.4; Wolbachia per cell robust z, rep 2: 0.371; Wolbachia per cell robust z, rep 3: 0.553

With Dredd (GeneID 31011) [DRSC18461], what was measured?
Wolbachia per cell robust z, rep 1: 0.488; Wolbachia per cell robust z, rep 2: 0.137; Wolbachia per cell robust z, rep 3: -0.524

With Dredd (GeneID 31011) [DRSC40866], how do the results read?
Wolbachia per cell robust z, rep 1: -3.27; Wolbachia per cell robust z, rep 2: 1; Wolbachia per cell robust z, rep 3: 0.435

Which result is listed for Mink (GeneID 42982) [DRSC14291]?
Wolbachia per cell robust z, rep 1: -0.782; Wolbachia per cell robust z, rep 2: -1.35; Wolbachia per cell robust z, rep 3: -1.83

Which result is listed for Prim2 (GeneID 44915) [DRSC11610]?
Wolbachia per cell robust z, rep 1: -0.942; Wolbachia per cell robust z, rep 2: 0.0745; Wolbachia per cell robust z, rep 3: 0.537

For akirin (GeneID 38821) [DRSC11000], what was measured?
Wolbachia per cell robust z, rep 1: 1.85 (active); Wolbachia per cell robust z, rep 2: 2.73; Wolbachia per cell robust z, rep 3: 3.13

For akirin (GeneID 38821) [DRSC26196], how do the results read?
Wolbachia per cell robust z, rep 1: 0.44 (active); Wolbachia per cell robust z, rep 2: 1.76; Wolbachia per cell robust z, rep 3: 1.61

How did the screen score Cog1 (GeneID 41479) [DRSC15661]?
Wolbachia per cell robust z, rep 1: -2.34 (active); Wolbachia per cell robust z, rep 2: -0.188; Wolbachia per cell robust z, rep 3: -1.77

How did the screen score CG33700 (GeneID 3772390) [DRSC37793]?
Wolbachia per cell robust z, rep 1: 0.103; Wolbachia per cell robust z, rep 2: 0.689; Wolbachia per cell robust z, rep 3: 1.04

With rdgB (GeneID 32340) [DRSC20365], what does the deposit list?
Wolbachia per cell robust z, rep 1: 0.012; Wolbachia per cell robust z, rep 2: 0.0796; Wolbachia per cell robust z, rep 3: 0.429

How did the screen score rdgB (GeneID 32340) [DRSC27840]?
Wolbachia per cell robust z, rep 1: -0.873; Wolbachia per cell robust z, rep 2: -0.246; Wolbachia per cell robust z, rep 3: 0.433

What is on record for CG3376 (GeneID 37884) [DRSC04362]?
Wolbachia per cell robust z, rep 1: 0.564; Wolbachia per cell robust z, rep 2: 0.165; Wolbachia per cell robust z, rep 3: 0.509

For CG3376 (GeneID 37884) [DRSC26489], what does the deposit list?
Wolbachia per cell robust z, rep 1: 0.621; Wolbachia per cell robust z, rep 2: 0.318; Wolbachia per cell robust z, rep 3: -1.25

What did the screen give for CG17105 (GeneID 34466) [DRSC02574]?
Wolbachia per cell robust z, rep 1: 1.16; Wolbachia per cell robust z, rep 2: 0.322; Wolbachia per cell robust z, rep 3: 0.111

With CG17105 (GeneID 34466) [DRSC26156], what was measured?
Wolbachia per cell robust z, rep 1: -1.22; Wolbachia per cell robust z, rep 2: -0.161; Wolbachia per cell robust z, rep 3: -1.32

For CG13743 (GeneID 35911) [DRSC22775], how do the results read?
Wolbachia per cell robust z, rep 1: -1.95; Wolbachia per cell robust z, rep 2: -0.746; Wolbachia per cell robust z, rep 3: -0.208

What is on record for CG13743 (GeneID 35911) [DRSC25575]?
Wolbachia per cell robust z, rep 1: 0.375; Wolbachia per cell robust z, rep 2: 0.908; Wolbachia per cell robust z, rep 3: 0.0664

What did the screen give for CG13743 (GeneID 35911) [DRSC39023]?
Wolbachia per cell robust z, rep 1: 1.01; Wolbachia per cell robust z, rep 2: -0.234; Wolbachia per cell robust z, rep 3: -0.566

Active calls, of those listed so far:
akirin (GeneID 38821) [DRSC11000]: Wolbachia per cell robust z, rep 1 = 1.85 (active); Wolbachia per cell robust z, rep 2 = 2.73; Wolbachia per cell robust z, rep 3 = 3.13
akirin (GeneID 38821) [DRSC26196]: Wolbachia per cell robust z, rep 1 = 0.44 (active); Wolbachia per cell robust z, rep 2 = 1.76; Wolbachia per cell robust z, rep 3 = 1.61
Cog1 (GeneID 41479) [DRSC15661]: Wolbachia per cell robust z, rep 1 = -2.34 (active); Wolbachia per cell robust z, rep 2 = -0.188; Wolbachia per cell robust z, rep 3 = -1.77
